From PMC10901353, “Identification of a potent and selective LAPTc inhibitor by RapidFire-Mass Spectrometry, with antichagasic activity” (PLOS Neglected Tropical Diseases, 2024)
Values joined by “and” are separate entries in the source; they are usually repeats but may differ in a detail not shown here. Equal values may be shown once.

What follows are compounds tested on intracellular T. cruzi amastigotes (assay: T. cruzi intracellular assay (high-content imaging, infected Vero cells)). Settings: individual replicates.
Assay type: cell-based, Trypanosoma cruzi
Experimental: T. cruzi parasite, TcI strain Silvio X10/7 subclone A1 [34] was maintained in culture as previously described. Parasites were maintained as amastigotes by passaging on a weekly basis in Vero cells. Culture maintenance infections were carried out at an MOI (multiplicity of infection) of 1.5.
This assay was performed as described with the only modification that treatment was 96 h instead of 72 h. Briefly, Vero cells were infected overnight with tissue culture derived T. cruzi trypomastigotes in T225 tissue culture flasks (MOI 5). Any remaining free trypomastigotes were washed away with serum free MEM and the infected Vero cells were harvested by trypsinisation. Compounds (250 nL in DMSO) were dispensed using LabCyte ECHO (Beckman Coulter Life Sciences, USA) into each well of Corning black flat bottomed 384-well plates (Corning, USA). […] The infected Vero cells were then plated into the plates containing the compounds, at 4,000 cells per well in MEM media with 1% FCS. After 96 h incubation at 37°C in presence of 5% CO2, the plates were fixed with 4% formaldehyde for 20 min at room temperature and stained with 5 μg/mL Hoechst 33342. The plates were imaged on a Perkin Elmer Operetta high-content imaging system using a 20× objective. Images were analyzed using the Columbus system (Perkin Elmer). The algorithm first identified the Vero nuclei followed by demarcation of the cytoplasm and identification of intracellular amastigotes. This algorithm reported percent infected Vero cell and total number of Vero cells. All potency determinations were carried out in at least three independent replicates and are reported as pEC50 +/- standard deviation. pEC50 = -log(EC50[M]).

| SMILES | Hill slope (T. cruzi) |
| --- | --- |
| COc1ccc2oc(C(=O)Nc3nc(-c4ccccn4)cs3)c(C)c2c1 [Compound 4] | 3.0 and 10.6 and 7.6 and 3.3 |
| Nc1[nH]cnc1-c1nc(-c2ccccc2)cs1 [Compound 7] | 0.751 and 0.663 |
| COc1ccc(CC(=O)Nc2nc(-c3ccccn3)cs2)c(OC)c1 [Compound 12] | 2.9 and 2.8 and 1.6 and 1.8 |
| c1ccc(Cc2ccc(OCCn3ccnc3)cc2)cc1 [Compound 13] | 1.6 and 3.6 and 11.5 and 7.5 |
| CCCS(=O)(=O)c1ccc(NS(=O)(=O)c2sc3ccc(Cl)cc3c2C)cc1 [Compound 24] | 2.6 and 1.1 and 4.3 and 0.571 |
